Earlier results in PMC11768433 (Viruses, 2024).

Tested on: T-20 resistant HIV-1 NL4-3 mutants
Design: method as in Ref.30089693
Settings: T-20 resistant NL4-3 mutants, TZM-bl, range over strains; ref Ref.30089693

Sequence	IC50
IEELLKKAEEQQKKNEEELKKLEX [DRAVPe00660]	0.15 to 88.6 nM
WEQKIEELLKKAEEQQKKNEEELKKLEX [DRAVPe00785]	0.01 to 1.86 nM
LEANIEELLKKAEEQQKKNEEELKKLEX [DRAVPe00784]	0.02 to 12.1 nM
YTSLIEELIKKSEEQQKKNEEELKKLEX [DRAVPe00783]	0.06 to 136 nM
